A mixed list of measured activities; the numbers were collected in NIAID ChemDB.

Common to all: whole-cell or culture tests; agent: Mycobacterium tuberculosis

Conditions beyond the fields shown may differ between rows. Percent inhibition refers to the dose given; in toxicity tests it is the harm to the cells. MIC bound comes from a single tested concentration. ECn: concentration that inhibits the pathogen or its effect by n%. A number after MIC or MFC names an inhibition level or a share of isolates.

CCC(=O)NNC(=O)c1ccncc1 ; strain: H37Rv ; measure: MIC ; value: 400 µg/mL
Cc1cn2c(C(=O)NCc3ccc4c(c3)CCO4)c(C)nc2s1 ; strain: H37Rv ; method: resazurin ; measure: MIC90 ; value: <2 µM
OCCNCCN1CCN(CCCN2c3ccccc3Sc3ccc(C(F)(F)F)cc32)CC1 ; strain: H37Rv ; cells: VERO ; method: BACTEC ; measure: MIC ; value: 12.5 µg/mL
CC(=O)NC[C@H]1CN(c2ccc(N3CCN(c4ccc([N+](=O)[O-])s4)CC3)c(F)c2)C(=O)O1 ; strain: M-168 ; measure: MIC ; value: 0.25 µg/mL
Cc1noc(NS(=O)(=O)c2ccc(NCc3c4ccccc4nc4cc(Cl)ccc34)cc2)c1C ; strain: H37Rv ; method: BACTEC ; measure: MIC bound ; value: ≤12.5 µg/mL
COC(=O)/C(=C/Cc1ccccc1)CN=[N+]=[N-] ; strain: H37Rv ; method: resazurin ; measure: MIC ; value: >128 µM
CSc1nc(C(N)=O)cnc1CC(C)C ; strain: H37Rv ; measure: MIC ; value: >12.5 µg/mL
C[C@@H]([C@H](NC(=O)[C@H](Cc1ccc2ccccc2c1)NC(=O)N[C@@H](Cc1c[nH]c2ccccc12)C(=O)NCc1ccccc1)C(=O)NC[C@H]1C[C@@H](O)[C@H](n2ccc(=O)[nH]c2=O)O1)N(C)C(=O)CN ; strain: H37Rv ; method: resazurin / fluorescence ; measure: MIC50 ; value: 0.099 µM
OCCNCCNCCO ; strain: H37Rv ; method: resazurin ; measure: inhibition ; tested at: 6.25 µg/mL ; value: 3%
Cc1ccc(-c2n[nH]c(=O)n2-n2c(C)ccc2C)cc1 ; strain: 8546 ; measure: MIC ; value: 5.16 µg/mL
O=C1CCCCCCCCCCCCCCCO1 ; strain: KM-R ; measure: MIC ; value: >12.8 µg/mL
CCCCCCCCCCCCCCCCS(=O)(=O)C[C@@H]1O[C@H](CO)[C@@H](O)[C@@H]1O ; strain: H37Rv ; measure: EC50 ; value: >6.25 µg/mL
O=C(Nc1ccc(C(F)(F)F)cc1)c1cc(Cl)ccc1OS(=O)(=O)c1ccccc1 ; strain: H37Rv ; conditions: 14 d ; measure: MIC ; value: 1 µM
CCCCc1ncc(C(N)=O)nc1SC ; strain: H37Rv ; measure: inhibition ; tested at: 12.5 µg/mL ; value: <90%
CCOc1ccc(NC(=O)OCC[NH+]2CCCC2)cc1 ; strain: My 331/88 ; measure: MIC ; value: >1000 µM
CCCCSc1nc(C(N)=S)cnc1C(C)(C)C ; strain: H37Rv ; measure: MIC ; value: >12.5 µg/mL
CCCNNC(=O)c1ccncc1 ; strain: H37Rv ; measure: MIC ; value: 40 µg/mL
Brc1ccc(-n2nnnc2SSc2nnnn2-c2ccc(Br)cc2)cc1 ; strain: H37Rv ; measure: MIC ; value: 250 µM
COC(=O)/C(=C/Cc1ccccc1Cl)CN=[N+]=[N-] ; strain: H37Rv ; method: resazurin ; measure: MIC ; value: >128 µM
CCCCCOc1ccccc1NC(=O)OCC[NH+]1CCCC1 ; strain: My 331/88 ; measure: MIC ; value: 125 µM
Cc1cc(C)c(-n2nnnc2SSc2nnnn2-c2c(C)cc(C)cc2C)c(C)c1 ; strain: H37Rv ; measure: MIC ; value: >1000 µM
COc1cc2c(c3oc(C)c(C)c(=O)c13)C=CC(C)(C)O2 ; strain: H37Rv ; method: BACTEC ; measure: MIC bound ; value: >12.5 µg/mL
Cc1ccn2c(C(=O)NCc3ccc(N4CCN(C(=O)OCC(C)C)CC4)c(F)c3)c(C)nc2c1 ; strain: H37Rv ; method: resazurin ; measure: MIC90 ; value: <2 µM
O=C(CCCC(=O)N/N=C/c1cc(O)ccc1O)N/N=C/c1cc(O)ccc1O ; strain: H37Rv ; method: BACTEC ; measure: MIC bound ; value: >12.5 µg/mL
O=C(Nc1ccc(F)cc1)c1ccc(Cl)cc1OS(=O)(=O)c1ccccc1 ; strain: H37Rv ; conditions: 14 d ; measure: MIC ; value: 16 µM
CCn1cc(C(=O)O)c(=O)c2cc(F)c(N3CCNCC3)cc21 ; strain: 22 isolates ; measure: MIC90 ; value: 4 µg/mL
CCCCCCOc1cccc(NC(=O)OCC[NH+]2CCCC2)c1 ; strain: My 331/88 ; measure: MIC ; value: 32 µM
COc1cc(C(O)(c2ccccc2)C2CCCCN2)cc(OC)c1OC ; strain: H37Rv ; method: resazurin ; measure: MIC bound ; value: >6.25 µg/mL
Cc1ccc2nc(C)c(C(=O)NCc3ccc4c(c3)CCO4)n2c1 ; strain: H37Rv ; method: resazurin ; measure: MIC90 ; value: <2 µM
C[N+](C)(C)CCCCCCCCCCC(=O)N/N=C/c1ccc([N+](=O)[O-])o1.[Br-] ; strain: H37Rv ; method: BACTEC ; measure: MIC bound ; value: >12.5 µg/mL
CCCCCCCCCOc1cccc(NC(=O)OCC[NH+]2CCCC2)c1 ; strain: My 331/88 ; measure: MIC ; value: 32 µM
NNC(=O)c1ccncc1 ; strain: H37Rv ; measure: EC50 ; value: >1000 µg/mL
CC(=O)Nc1ccc(S(=O)(=O)N/N=C/c2cc(Cl)ccc2O)cc1 ; strain: H37Rv ; method: BACTEC ; measure: inhibition ; tested at: 12.5 µg/mL ; value: 17%
CCCCOc1cccc(NC(=O)OCC[NH+]2CCCC2)c1 ; strain: My 331/88 ; measure: MIC ; value: 125 µM
CCCCCCCCCCP(=O)([O-])C[C@@H]1O[C@H](CO)[C@@H](O)[C@@H]1O ; strain: H37Rv ; measure: EC50 ; value: >6.25 µg/mL
COc1ccccc1NC(=O)OCC[NH+]1CCCC1 ; strain: My 331/88 ; measure: MIC ; value: >1000 µM
CC(=O)OCCn1c([N+](=O)[O-])cnc1/C=[N+](\[O-])CCOC(C)=O ; strain: H37Rv ; method: resazurin ; measure: inhibition ; tested at: 6.25 µg/mL ; value: 1%
O=C(Nc1ccc(Br)cc1)c1cc(Cl)ccc1OS(=O)(=O)c1ccccc1 ; strain: H37Rv ; conditions: 14 d ; measure: MIC ; value: 8 µM
CCCCCOc1cccc(NC(=O)OCC[NH+]2CCCC2)c1 ; strain: My 331/88 ; measure: MIC ; value: 62.5 µM
C[C@@H]([C@H](NC(=O)[C@H](Cc1ccc2ccccc2c1)NC(=O)N[C@@H](Cc1c[nH]c2ccccc12)C(=O)OCC(C)(C)C)C(=O)NC[C@H]1C[C@@H](O)[C@H](n2ccc(=O)[nH]c2=O)O1)N(C)C(=O)CN ; strain: H37Rv ; method: resazurin / fluorescence ; measure: MIC50 ; value: 0.011 µM
CCCCCCCCCS(=O)(=O)C[C@@H]1O[C@H](CO)[C@@H](O)[C@@H]1O ; strain: H37Rv ; measure: EC50 ; value: >6.25 µg/mL
CCSc1nc(C(N)=O)cnc1CC(C)C ; strain: H37Rv ; measure: inhibition ; tested at: 12.5 µg/mL ; value: <90%
NC(N)=NC[C@H]1C[C@@H](C(=O)O)C[C@@H]1N=C(N)N ; strain: TMC 125 (aoyama) ; measure: MIC ; value: 12.5 µg/mL
CCCCCCCCCCCCCCCCOCCCCOP(=O)(O)C[C@@H]1O[C@H](CO)[C@@H](O)[C@@H]1O ; strain: H37Rv ; measure: EC50 ; value: <6.25 µg/mL
Oc1c(OCc2nnc(CCCCCCCCc3nnc(COc4ccc5ccccc5c4O)o3)o2)ccc2ccccc12 ; strain: H37Rv ; method: resazurin ; measure: MIC bound ; value: >6.25 µg/mL
CCCCCCNC(=O)[C@H](Cc1c[nH]c2ccccc12)NC(=O)N[C@@H](CC1CCCCC1)C(=O)N[C@H](C(=O)NC[C@H]1C[C@@H](O)[C@H](n2ccc(=O)[nH]c2=O)O1)[C@H](C)N(C)C(=O)CN ; strain: H37Rv ; method: resazurin / fluorescence ; measure: MIC99 ; value: >0.5 µM
CCCc1ncc(C(N)=S)nc1SC ; strain: H37Rv ; measure: MIC ; value: >12.5 µg/mL
CCCCCCCCCCCCS(=O)(=O)C[C@@H]1O[C@H](CO)[C@@H](O)[C@@H]1O ; strain: H37Rv ; measure: inhibition ; tested at: 6.25 µg/mL ; value: 45%
Cc1ccc(Oc2nc3ccccc3cc2C2C(C#N)=C(N)Oc3c2c(=O)oc2ccccc32)cc1 ; strain: H37Rv ; measure: inhibition ; tested at: 250 µg/mL ; value: 10%
COc1c(N2CCNC(C)C2)c(F)cc2c(=O)c(C(=O)O)cn(C3CC3)c12 ; strain: 35 strains ; measure: MIC ; value: 8 µg/mL
O=C(Nc1ccc(Cl)c(Cl)c1)c1cc(Cl)ccc1OS(=O)(=O)c1ccccc1 ; strain: H37Rv ; conditions: 14 d ; measure: MIC ; value: 1 µM
COc1ccc(NC(=O)OCC[NH+]2CCCC2)cc1 ; strain: My 331/88 ; measure: MIC ; value: >1000 µM
O=C(Nc1ccc(Cl)cc1)c1cc(Cl)ccc1OS(=O)(=O)c1ccccc1 ; strain: H37Rv ; conditions: 21 d ; measure: MIC ; value: 4 µM
CO[C@H]1/C=C/O[C@@]2(C)Oc3c(C)c(O)c4c(O)c(c(/C=N/N5CCN(C/C=C/c6ccccc6)CC5)c(O)c4c3C2=O)NC(=O)/C(C)=C\C=C\[C@H](C)[C@H](O)[C@@H](C)[C@@H](O)[C@@H](C)[C@H](OC(C)=O)[C@@H]1C ; strain: H37Rv ; measure: MIC ; value: 0.1 µg/mL
CCN(CC)CCCC(C)Nc1ccnc2c1ccc1c(NC(C)CCCN(CC)CC)ccnc12 ; strain: H37Rv ; method: BACTEC ; measure: MIC bound ; value: >12.5 µg/mL
CC(C)(C)c1ncc(C(N)=O)nc1Sc1ccccc1 ; strain: H37Rv ; measure: inhibition ; tested at: 12.5 µg/mL ; value: <90%
CCCCCCNC(=O)[C@H](Cc1c[nH]c2ccccc12)NC(=O)N[C@@H](Cc1ccc2ccccc2c1)C(=O)N[C@H](C(=O)NC[C@H]1C[C@@H](O)[C@H](n2ccc(=O)[nH]c2=O)O1)[C@H](C)N(C)C(=O)CN ; strain: H37Rv ; method: resazurin / fluorescence ; measure: MIC50 ; value: 0.229 µM
Cc1ccc(Nc2nc(N)nc(N)c2N=O)cc1Cl ; strain: H37Rv ; method: BACTEC ; measure: inhibition ; tested at: 12.5 µg/mL ; value: 50%
C[C@@H]([C@H](NC(=O)[C@H](CC1CCCCC1)NC(=O)N[C@@H](Cc1c[nH]c2ccccc12)C(=O)OCC(C)(C)C)C(=O)NC[C@H]1C[C@@H](O)[C@H](n2ccc(=O)[nH]c2=O)O1)N(C)C(=O)CN ; strain: H37Rv ; method: resazurin / fluorescence ; measure: MIC99 ; value: 0.0156 µM
CCCc1ncc(C(N)=O)nc1Sc1ccccc1 ; strain: H37Rv ; measure: MIC ; value: >12.5 µg/mL
C[C@@H]([C@H](NC(=O)[C@H](Cc1ccc2ccccc2c1)NC(=O)N[C@@H](Cc1c[nH]c2ccccc12)C(=O)O)C(=O)NC[C@H]1C[C@@H](O)[C@H](n2ccc(=O)[nH]c2=O)O1)N(C)C(=O)CN ; strain: H37Rv ; method: resazurin / fluorescence ; measure: MIC99 ; value: 0.8 µM
OC(CC1CCCCN1)c1ccc2c(c1)oc1ccccc12 ; strain: H37Rv ; method: BACTEC ; measure: MIC bound ; value: >12.5 µg/mL
Cc1ccn2c(C(=O)NCc3ccc(N4CCOCC4)c(F)c3)c(C)nc2c1 ; strain: H37Rv ; method: resazurin ; measure: MIC90 ; value: <2 µM
CCCCSc1nc(C(N)=S)cnc1CC(C)C ; strain: H37Rv ; measure: MIC ; value: >12.5 µg/mL
COc1ccc(-n2nnnc2SSc2nnnn2-c2ccc(OC)cc2)cc1 ; strain: H37Rv ; measure: MIC ; value: 500 µM
CCCCSc1nc(C(N)=O)cnc1CCCC ; strain: H37Rv ; measure: inhibition ; tested at: 12.5 µg/mL ; value: 79%
O=C(Nc1ccc(F)cc1)c1cc(Cl)ccc1OS(=O)(=O)c1ccccc1 ; strain: H37Rv ; conditions: 14 d ; measure: MIC ; value: 8 µM
Cc1cn2c(C(=O)NCc3ccc(N4CCN(c5ccc(S(F)(F)(F)(F)F)cc5)CC4)cc3)c(C)nc2s1 ; strain: H37Rv ; method: resazurin ; measure: MIC90 ; value: <2 µM
COC(=O)/C(=C/Cc1cccc2ccccc12)CN=[N+]=[N-] ; strain: H37Rv ; method: resazurin ; measure: MIC ; value: >128 µM
[Cl][Sn]([Cl])([c]1cccs1)[c]1cccs1.c1cnc2c(c1)ccc1cccnc12 ; strain: H37Rv ; method: BACTEC ; measure: MIC bound ; value: ≤12.5 µg/mL
COc1ccc2nc(Oc3ccc(Cl)cc3)c(C3C(C#N)=C(N)Oc4c3c(=O)oc3ccccc43)cc2c1 ; strain: H37Rv ; measure: inhibition ; tested at: 250 µg/mL ; value: 32%
COc1cc(COC(=O)c2ccc(CSc3ccc(Cl)cc3)o2)cc(OC)c1OC ; strain: H37Rv ; method: BACTEC ; measure: inhibition ; tested at: 12.5 µg/mL ; value: 49%
COc1ccc2nc(Oc3ccc(C)cc3)c(C3C(C#N)=C(N)Oc4c3c(=O)oc3ccc(C)cc43)cc2c1 ; strain: H37Rv ; measure: inhibition ; tested at: 250 µg/mL ; value: 61%
O=C(NNc1ccccc1)C(=O)NNc1ccccc1 ; strain: H37Rv ; method: BACTEC ; measure: MIC bound ; value: >12.5 µg/mL
Cc1ccc2nc(Oc3ccc(Cl)cc3)c(C3C(C#N)=C(N)Oc4c3c(=O)oc3ccc(C)cc43)cc2c1 ; strain: H37Rv ; measure: inhibition ; tested at: 250 µg/mL ; value: 38%
N#CC1(c2nc3ccccc3o2)C(=O)C(=O)N(c2ccc(Cl)c(Cl)c2)C(=O)C1=O ; strain: H37Rv ; method: resazurin ; measure: inhibition ; tested at: 6.25 µg/mL ; value: 92%
CCc1nc2ccc(Cl)cn2c1C(=O)NCc1ccc2c(c1)CCO2 ; strain: H37Rv ; method: resazurin ; measure: MIC90 ; value: <2 µM
COc1ccc(-c2cc(=O)c3cc(C)c(C)c(C#N)c3o2)cc1 ; strain: H37Rv ; method: resazurin ; measure: inhibition ; tested at: 6.25 µg/mL ; value: 18%
COc1ccc2nc(Oc3ccc(C)cc3)c(C3C(C#N)=C(N)Oc4c3c(=O)oc3ccccc43)cc2c1 ; strain: H37Rv ; measure: inhibition ; tested at: 250 µg/mL ; value: 24%
CC1=Nc2cc(C)c(C)cc2N2C1=CC1=C(C(=O)c3cc4ccccc4cc3C1=O)C2C ; strain: H37Rv ; method: BACTEC ; measure: inhibition ; tested at: 12.5 µg/mL ; value: -8%
N#CC1=C(N)Oc2c(c(=O)oc3ccccc23)C1c1cc2ccccc2nc1Oc1ccccc1 ; strain: H37Rv ; measure: inhibition ; tested at: 250 µg/mL ; value: 21%
CCc1nc2ccc(Cl)cn2c1C(=O)NCc1cccc(S(F)(F)(F)(F)F)c1 ; strain: H37Rv ; method: resazurin ; measure: MIC90 ; value: <2 µM